In ChEMBL document CHEMBL4680272 (Eur J Med Chem, 2020):

Tested on: Influenza A virus (A/California/04/2009(H1N1))
Experiment: Potency index, ratio of oseltamivir carboxylate IC50 to test compound IC50 for inhibition of Influenza A virus (A/California/04/2009 (H1N1-H274Y)) Neuraminidase using MUNANA as substrate preincubated for 5 to 15 mins followed by substrate addition and measured after 30 mins by fluorescence …
Conditions: time 35-45 min

CCC(CC)O[C@@H]1C=C(C(=O)O)C[C@H](NC(N)=O)[C@H]1NC(C)=O gave a Ratio IC50 of 6.
